For experiment [1], the system named is S. aureus MN8. Format: cell-based.
Experiment [2] has as its system N. gonorrhoeae. Format: cell-based.

Some results are limits rather than exact numbers.

Regarding `CCCCCCCCCCCC(=O)OCC(O)CO` (stereo not drawn) [GML, glycerol monolaurate], the “bacteria in epithelial cells pre-treated with GML” value in experiment [1] is “no bacteria were detectable”. For the same molecule, in experiment [2], the “Average colony forming units from two wells” value is less than 10 colony forming units and the “bacteria in GML treated cells” value is “no detectable bacteria”.

(Values after patent US20070276049A1 (priority 2003, published 2007).)
